Results of unrelated studies side by side (data: NIAID ChemDB).

Shared fields: tests in culture; species: HIV-1

Neighbouring rows are from separate reports.

SMILES | cells | mutations | measure | read by | strain or isolate | conditions | result
CC1(Cn2cnc3c(N)ncnc32)CC1CO |  |  | EC50 |  |  |  | 42.8 µg/mL
Nc1ccn([C@H]2CC[C@@H](CO)O2)c(=O)n1 | MT-2 |  | EC50 | cytopathic effect / XTT |  |  | 0.29 µg/mL
CC(C)(C)[C@H](NC(=O)c1nc2ccccc2[nH]1)C(=O)N[C@@H](Cc1ccccc1)[C@H](O)[C@@H](CO)[C@H](Cc1ccccc1)NC(=O)[C@@H](NC(=O)c1nc2ccccc2[nH]1)C(C)(C)C | MT-4 |  | EC50 |  | IIIB |  | >10 µM
CN1CC=C(CC2(CC3=CCN(C)CC3)C(=O)N(c3ccccc3)c3cc4ccccc4cc32)CC1 | MT-2 |  | EC50 | cytopathic effect / XTT | IIIB |  | 4.4 µM
CC(C)=CCN1Cc2cc(Cl)cc3[nH]c(=S)n(c23)C[C@@H]1C | MT-4 | RT-L74V L100I | EC50 |  |  |  | <3 µM
Cc1ccnc2c1NC(=O)c1cccnc1N2C1CC1 | MT-4 | RT-K101E | EC50 | cytopathic effect / MTT |  |  | 0.316 µM
Nc1ccn([C@H]2CC[C@@H](CO)O2)c(=O)n1 | PBMC |  | EC50 | p24 | RF |  | 0.01 µM
O=C1N(c2ccccc2)c2ccccc2C1(CC1=CCN(CC2CC2)CC1)CC1=CCN(CC2CC2)CC1 | MT-2 |  | EC50 | plaque count | RF |  | >10 µM
Nc1ncnc2c1ncn2[C@@H]1O[C@H](CO)[C@@H](O)[C@@H]1O | ATH8 |  | EC50 | cytopathic effect | LAV Laboratory strain |  | >50 µg/mL
CC(C)(C)[C@H](NC(=O)OCc1nc2ccccc2[nH]1)C(=O)N[C@@H](Cc1ccccc1)[C@@H](O)[C@H](CO)[C@H](Cc1ccccc1)NC(=O)[C@@H](NC(=O)OCc1nc2ccccc2[nH]1)C(C)(C)C | MT-4 |  | EC50 |  | IIIB |  | 0.5 µM
Nc1ccc(-c2nc3ccccc3c(=O)[nH]2)cc1 | MT-4 |  | EC50 | MTT |  |  | >238.1 µM
CCOC(=O)[C@@H](OC(C)(C)C)c1c(C)nc(C)c(-c2ccc(OC3COCC3c3ccc(F)cc3)cc2)c1N1CCC(C)(C)CC1 | MT-2 |  | EC50 | luminescence | NL4-3 |  | ≤0.1 µM
CC(C)[C@H]1C(=O)O[C@H](C(C)C)C(=O)N(C)[C@@H](C(C)C)C(=O)O[C@H](C(C)C)C(=O)N(C)[C@@H](C(C)C)C(=O)O[C@H](C(C)C)C(=O)N1C | CEM + CEM-SS |  | EC50 | cytopathic effect / XTT |  |  | 0.01 µg/mL
Cc1cn([C@H]2C[C@H](N=[N+]=[N-])[C@@H](CO)O2)c(=O)[nH]c1=O | PBMC | RT-V75I | EC50 | p24 | Recombinant |  | 0.001 µM
Cc1cn([C@@H]2C[C@@H](N=[N+]=[N-])[C@H](CO)O2)c(=O)[nH]c1=O | PBMC |  | EC50 | RT activity | LAI |  | >100 µM
Cc1cn([C@H]2C[C@H](N=[N+]=[N-])[C@@H](CO)O2)c(=O)[nH]c1=O | C8166 |  | EC50 | cytopathic effect | IIIB |  | 0.00674 µM
O=c1[nH]cnc2c1ncn2[C@H]1CC[C@@H](CO)O1 | PBMC |  | EC90 | p24 | IIIB |  | 2.9 µM
O=C1N(Cc2cccc(O)c2)[C@H](CCc2ccccc2)[C@@H](O)[C@@H](Cc2ccccc2)N1Cc1cccc(O)c1 | MT-2 |  | EC50 | cytopathic effect / MTT | RF |  | <0.115 µM
CCCOC(=O)C(C)NP(=O)(OC[C@@H]1C=C[C@H](n2cc(C)c(=O)[nH]c2=O)O1)Oc1ccccc1 | CEM + CEM TK- |  | EC50 | cytopathic effect / trypan blue | IIIB |  | 0.047 µM
C=C(C)[C@@]1(OC(=O)c2ccccc2)[C@H](OC(C)=O)[C@@H]2[C@H](OC(C)=O)[C@@]3(C)O[C@@]4([C@@H]3OC(=O)c3ccccc3)[C@@H](O)[C@@H](C)C[C@H]4[C@@]2(O)[C@H](C)[C@@H]1OC(C)=O | C8166 |  | EC50 | cytopathic effect / syncytia | IIIB |  | 11.42 µg/mL
N/C(=N\O)c1cccc(CN2C(=O)N(Cc3cccc(N)c3)[C@H](Cc3ccccc3)[C@H](O)[C@H]2CCc2ccccc2)c1 | MT-2 |  | EC50 | cytopathic effect / MTT | RF |  | <0.017 µM
CNCCC=C1c2ccccc2CCc2ccccc21 | MOLT-3 |  | EC50 | p24 | IIIB |  | >5 µg/mL
O=C1N(c2ccccc2)c2ccccc2C1(Cc1nccn1Cc1ccccc1)Cc1nccn1Cc1ccccc1 | MT-2 |  | EC50 | plaque count | RF |  | <4 µM
CCc1cc(NCc2nc3c(Cl)ccc(Cl)c3o2)c(=O)[nH]c1C | MT-4 |  | EC50 | cytopathic effect / MTT | IIIB |  | 0.03 µM
C=C(C)[C@@H]1CC[C@]2(NCCN3C[C@@H]4C[C@@H]3CS4(=O)=O)CC[C@]3(C)[C@H](CC[C@@H]4[C@@]5(C)CC=C(C6=CC[C@H](OC(=O)CC(C)(C)C(=O)O)CC6)C(C)(C)[C@@H]5CC[C@]43C)[C@@H]12 | MT-2 |  | EC50 | luciferase | NL4-3 |  | <0.1 µM
Nc1ccn([C@@H]2CO[C@H](CO)S2)c(=O)n1 | C8166 | RT-K65R | EC50 | p24 | RF |  | 7 µM
COc1ccc(OC[C@H]2CN(C)CC[C@@H]2c2ccccc2)cc1 | MOLT-3 |  | EC50 | syncytia | IIIB |  | >4 µg/mL
Cc1cn([C@H]2C[C@H](N=[N+]=[N-])[C@@H](CO)O2)c(=O)[nH]c1=O | MT-4 |  | EC50 |  | IIIB |  | 0.00061 µg/mL
CC(C)(C)C(=O)SCCOP(=O)(OCCSC(=O)C(C)(C)C)OC[C@H]1CC[C@@H](n2cnc3c(N)ncnc32)O1 | PBMC |  | EC50 | RT activity | LAI |  | 0.002 µM
COc1nc(=O)n([C@H]2C=C[C@@H](CO)O2)cc1C | C8166 |  | EC50 |  |  |  | >50 µM
CC1(Cn2cnc3cnc(Cl)nc32)CC1CO |  |  | EC50 |  |  |  | >100 µg/mL
Fc1ccc([C@H]2CCNC[C@@H]2COc2ccc3c(c2)OCCO3)cc1 | MOLT-3 |  | EC50 | syncytia | IIIB |  | >4 µg/mL
CC(C)(C)[C@H](N)C(=O)N[C@@H](Cc1ccccc1)[C@@H](O)[C@H](CO)[C@H](Cc1ccccc1)NC(=O)[C@@H](N)C(C)(C)C | MT-4 |  | EC50 |  | IIIB |  | >10 µM
CN(C)CCC=C1c2ccccc2CCc2ccccc21 | MOLT-3 |  | EC50 | p24 | IIIB |  | >10 µg/mL
Cc1cn([C@H]2CC[C@H](O)[C@H]2CO)c(=O)[nH]c1=O | CEM + CEM/0 |  | EC50 |  |  |  | 10 µM
Nc1nc(=O)n([C@@H]2C[C@@H](O)[C@H](CO)O2)cc1Cl | PBMC |  | EC50 | RT activity | LAI |  | >100 µM
CN1CCC(c2c(O)cc(O)c3c(=O)cc(-c4ccccc4Cl)oc23)[C@H](O)C1 | OM-10.1 |  | EC50 | p24 |  |  | 0.003 µM
Cc1cn([C@H]2C[C@H](N=[N+]=[N-])[C@@H](CO)O2)c(=O)[nH]c1=O | HEK 293 |  | EC50 | luciferase | PNL-4.3LUCR-E |  | 0.009 µg/mL
CC(C)Nc1cccnc1N1CCN(C(=O)c2cc3cc(NS(C)(=O)=O)ccc3[nH]2)CC1 | MT-4 |  | EC50 | cytopathic effect / MTT | IIIB |  | 0.01 µM
Nc1ncnc2c1ncn2[C@@H]1C[C@@H](O)[C@H](CO)O1 | PBMC |  | EC50 | RT activity | LAI |  | >10 µM
CCOC(=O)N1CCC(CC2C(=O)N(c3ccccc3)c3ccccc32)CC1 | MT-2 |  | EC50 | cytopathic effect / XTT | IIIB |  | 2.6 µM
C=C(C)[C@@]1(OC(C)=O)[C@H](OC(C)=O)[C@@H]2[C@H](OC(C)=O)[C@@]3(C)O[C@@]4([C@@H]3OC(=O)c3ccccc3)[C@@H](OC(C)=O)[C@@H](C)C[C@H]4[C@@]2(O)[C@H](C)[C@@H]1OC(=O)c1ccccc1 | C8166 |  | EC50 | cytopathic effect / syncytia | IIIB |  | 12.55 µg/mL
O=c1[nH]cnc2c1ncn2[C@H]1CC[C@@H](CO)O1 | PBMC | RT-F77L | EC50 | p24 | Recombinant |  | 0.2 µM
COc1nc(Cl)nc2c1ncn2[C@H]1C=C[C@@H](OCP(=O)(O)O)O1 | MT-4 |  | EC50 | RT activity | IIIB |  | >125 µg/mL
C=C(C)[C@@]12OCO[C@@H]1[C@@H]1[C@H](O)[C@@](C)(O)[C@@H](OC(C)=O)[C@@]3(O)C(C[C@H](C)[C@@H]3O)[C@@]1(Oc1ccccc1)[C@H](C)[C@@H]2OC(=O)c1ccccc1 | C8166 |  | EC50 | cytopathic effect / syncytia | IIIB |  | 57.95 µg/mL
Cc1cn([C@@H]2C[C@@H](N)[C@H](CO)O2)c(=O)[nH]c1=O | PBMC |  | EC50 | RT activity | LAI |  | >10 µM
Cc1cccc2c1OP(=O)(OC[C@H]1[C@H](n3cc(C)c(=O)[nH]c3=O)CC[C@@H]1O)OC2 | CEM + CEM/0 |  | EC50 |  |  |  | 80 µM
CSc1nc(N)c2ncn([C@H]3C=C[C@@H](OCP(=O)(O)O)O3)c2n1 | MT-4 |  | EC50 | RT activity | IIIB |  | 75.4 µg/mL
COC(=O)[C@H](C)NP(=O)(OC[C@@H]1C=C[C@H](n2cc(C)c(=O)[nH]c2=O)O1)Oc1ccccc1 | MT-4 |  | EC50 | trypan blue | IIIB | 5 d | 0.07 µM
CCSC[C@H]1O[C@@H](n2cc(C)c(=O)[nH]c2=O)C[C@@H]1N=[N+]=[N-] | MT-4 |  | EC50 |  | IIIB |  | 0.83 µg/mL
COC(=O)C(Cc1ccccc1)NC(=O)[C@@H](NC(=O)[C@@H](C[C@H](O)[C@H](CC1CCCCC1)NC(=O)[C@@H](NC(=O)[C@H](Cc1ccccc1)CS(=O)(=O)C(C)(C)C)C(C)C)C(C)C)C(C)C | MT-4 |  | EC50 | cytopathic effect / MTT | IIIB |  | 0.003 µM
COc1ccc(OC[C@H]2CNCC[C@@H]2c2ccccc2)cc1 | MOLT-3 |  | EC50 | syncytia | IIIB |  | >4 µg/mL
Cc1cn([C@@H]2C[C@H](CO)[C@@H](O)C2)c(=O)[nH]c1=O | CEM + CEM/0 |  | EC50 |  |  |  | 0.5 µM
CN1CCCC(CCC2(CCC3CCCN(C)C3)C(=O)N(c3ccccc3)c3ccccc32)C1 | MT-2 |  | EC50 | cytopathic effect / XTT | IIIB |  | 3.8 µM
COc1ccc(Sc2nc(N)nc3c2ncn3CCOCP(=O)(OCC(F)(F)F)OCC(F)(F)F)cc1 | MT-4 |  | EC50 | cytopathic effect / MTT | IIIB |  | >34 µM
CNc1nc(N)c2ncn([C@H]3C=C[C@@H](OCP(=O)(O)O)O3)c2n1 | MT-4 |  | EC50 | RT activity | IIIB |  | >125 µg/mL
Nc1noc2ccc(CN3C(=O)N(Cc4ccc5onc(N)c5c4)[C@H](Cc4ccccc4)[C@H](O)[C@H]3CCc3ccccc3)cc12 | MT-2 |  | EC50 | cytopathic effect / MTT | RF |  | <0.132 µM
Nc1nc(Cl)nc2c1ncn2[C@H]1C=C[C@@H](OCP(=O)(O)O)O1 | MT-4 |  | EC50 | RT activity | IIIB |  | >9.4 µg/mL
Cc1cn([C@H]2CC[C@@H](O)[C@H]2CO)c(=O)[nH]c1=O | CEM + CEM/0 |  | EC50 |  |  |  | >250 µM
Cc1cc(-c2ccc(N=Nc3ccc4c(S(=O)(=O)O)cc(S(=O)(=O)O)c(N)c4c3O)c(C)c2)ccc1N=Nc1ccc2c(S(=O)(=O)O)cc(S(=O)(=O)O)c(N)c2c1O | ATH8 |  | EC50 | cytopathic effect | LAV Laboratory strain |  | <10 µg/mL
CC(C)(C)[C@H](NC(=O)OCCc1nc2ccccc2[nH]1)C(=O)N[C@@H](Cc1ccccc1)[C@@H](O)[C@H](CO)[C@H](Cc1ccccc1)NC(=O)[C@@H](NC(=O)OCCc1nc2ccccc2[nH]1)C(C)(C)C | MT-4 |  | EC50 |  | IIIB |  | 0.52 µM
C=C(C)[C@@H]1CC[C@]2(NCCN3C[C@@H]4C[C@@H]3CO4)CC[C@]3(C)[C@H](CC[C@@H]4[C@@]5(C)CC=C(c6ccc(C(=O)O)cc6)C(C)(C)[C@@H]5CC[C@]43C)[C@@H]12 | MT-2 |  | EC50 | luciferase | NL4-3 |  | <0.1 µM
CC(C)(C)[C@H](NC(=O)OCc1ccccc1)C(=O)N[C@@H](Cc1ccccc1)[C@H](O)[C@@H](CO)[C@H](Cc1ccccc1)NC(=O)[C@@H](NC(=O)OCc1ccccc1)C(C)(C)C | MT-4 |  | EC50 |  | IIIB |  | >10 µM
C[C@]12CCC(=O)C=C1CC[C@@H]1[C@@H]2[C@@H](O)C[C@@]2(C)[C@H]1CC[C@]2(O)C(=O)COP(=O)(O)O | PBMC |  | EC50 | RT activity | BRU |  | >5 µg/mL
O=c1[nH]c(-c2ccc3[nH]ncc3c2)nc2ccccc12 | MT-4 |  | EC50 | MTT |  |  | >42.6 µM
Cc1cn([C@H]2C=C[C@@H](CO)O2)c(=O)[nH]c1=O | CEM |  | EC50 | syncytia | IIIB | 4 d | 0.8 µM
Fc1ccc([C@@H]2CCNC[C@H]2COc2ccc3c(c2)OCCO3)cc1 | MOLT-3 |  | EC50 | p24 | IIIB |  | >4 µg/mL
Nc1ncnc2c1ncn2CCOCP(=O)(O)O | PBMC |  | EC50 |  | LAI |  | 0.42 µM
Cc1cn([C@@H]2C[C@@H](F)[C@H](CO)O2)c(=O)[nH]c1=O | PBMC |  | EC50 | RT activity | LAI |  | >100 µM
Cc1cn([C@H]2C[C@H](N=[N+]=[N-])[C@@H](CO)O2)c(=O)[nH]c1=O | MT-4 |  | EC50 | RT activity | IIIB |  | 0.0019 µg/mL
Nc1ncnc2c1ncn2CCOCP(=O)(O)O | C8166 |  | EC50 | p24 | RF |  | 1.5 µM
Nc1ncnc2c1ccn2[C@@H]1O[C@H](CO)[C@@H](O)[C@H]1O | ATH8 |  | EC50 | cytopathic effect | LAV Laboratory strain |  | >5 µg/mL
CC(C)[C@H](NC(=O)OCc1ccccc1)C(=O)N[C@@H](Cc1ccccc1)[C@@H](O)[C@H](CO)[C@H](Cc1ccccc1)NC(=O)[C@@H](NC(=O)OCc1ccccc1)C(C)C | MT-4 |  | EC50 |  | IIIB |  | 3.7 µM

An empty or dashed field is not shown. ECn is the concentration giving n% inhibition of infection, replication or growth.